Measurements from patent publication US20240122867A1, “CORONAL PROTEIN-COATED NANOPARTICLES AND USES THEREOF” (UNIVERSITY OF CENTRAL FLORIDA RESEARCH FOUNDATION, INC., priority 2021, published 2024).
Like-named read-outs stand apart in the source and are kept apart here.

B1: Isoleucine--tRNA ligase, mitochondrial (protein, UniProt Q8BIJ6 49-1012, looked up)
Isoleucine--tRNA ligase, …: DSPQSSSKGGRYRDTVLLPQTSFPMKLLGRQQSDMELEIQQKCGFSELYSWQRERKVKTEFCLHDGPPYANGDPHVGHALNKILKDIANRFHMMRGSKVHFVPGWDCHGLPIETKVLSELGVDAQSLSAMEIREKARSFAQAAIEKQKSAFVRWGVMADWNNCYYTFDPKYEAKQLRVFYQMYEKGLVYRSYKPVYWSPSSRTALAEAELEYNPEHVSRSIYVRFPLLRPPPKLESLTDASSPVSVLVWTTQPWTIPANQAICYMPEAKYAVVKCSASGHLYILAEDKIAPVASALETTFDVVAAFSGVDLEGGTCSHPLTPDKVSPLLPATHVTMAKGTGLVHTAPAHGMEDYSVASQHSLPMDCLVDEGGMFTDAAGPELQNKAVLKEGTDVVIKMLQATKNVLKEENIVHSYPCDWRTKTPVLIRASKQWFVNITDIKAAAKESLKTVKFIPGAALNSMTDMLDRRPYWCISRQRVWGVPIPVFHHKTKDEYLINSQTTEHIIKLVEQHGSDVWWTLPAEQLLPAEVLAQAGGPGALEYAPGQDILDIWFDSGTSWSCVLQDTQQRADLYLEGKDQLGGWFQSSLLTSVATRSKAPFRTVMVHGFTLGEKGEKMSKSLGNVINPDTIISGGKDHSKEPPYGADILRWWIAESNVFTEVTIGPSVLSAARDDISKLRNTLRFLLGNLTGFNPETDSVPVKNMYVIDQYMLHLIQDFATKITDSYKQYDFGKVVRLLKAFYTRELSSFYFSIVKDRLYCENEKDPKRRSCQTALAEILDVLVRAFAPILPHLAEEVFQHIPYVTEPKSVFRTGWINTSSIWKKPGLEEAVESACAMRDSFLGSIPGKNAAEYEVIIVIEPGLLFEIMEMLQAEETSSTSQLNELMMASQTTLLAQEPRERTAGDIELTGTFVINLEGGDIREESSYKVIVVPTAREKCPRCWKHTSETADALCPRCAEVIGAK
B2: Proprotein convertase subtilisin/kexin type 9 (protein, UniProt Q80W65 156-694, looked up)
Proprotein convertase …: SIPWNLERIIPAWHQTEEDRSPDGSSQVEVYLLDTSIQGAHREIEGRVTITDFNSVPEEDGTRFHRQASKCDSHGTHLAGVVSGRDAGVAKGTSLHSLRVLNCQGKGTVSGTLIGLEFIRKSQLIQPSGPLVVLLPLAGGYSRILNAACRHLARTGVVLVAAAGNFRDDACLYSPASAPEVITVGATNAQDQPVTLGTLGTNFGRCVDLFAPGKDIIGASSDCSTCFMSQSGTSQAAAHVAGIVARMLSREPTLTLAELRQRLIHFSTKDVINMAWFPEDQQVLTPNLVATLPPSTHETGGQLLCRTVWSAHSGPTRTATATARCAPEEELLSCSSFSRSGRRRGDWIEAIGGQQVCKALNAFGGEGVYAVARCCLVPRANCSIHNTPAARAGLETHVHCHQKDHVLTGCSFHWEVEDLSVRRQPALRSRRQPGQCVGHQAASVYASCCHAPGLECKIKEHGISGPSEQVTVACEAGWTLTGCNVLPGASLTLGAYSVDNLCVARVHDTARADRTSGEATVAAAICCRSRPSAKASWVQ
B3: EH domain-containing protein 4 (protein, UniProt Q9EQP2 1-541, looked up)
EH domain-containing protein 4: MFSWMGRQAGGRERSGGMDAVQTVTGGLRSLYQRKVLPLEEAYRFHEFHSPALEDADFENKPMILLVGQYSTGKTTFIRYLLEQDFPGMRIGPEPTTDSFIAVMYGETEGSTPGNALVVDPKKPFRKLSRFGNAFLNRFMCSQLPNQVLKSISIIDSPGILSGEKQRISRGYDFCQVLQWFAERVDRIILLFDAHKLDISDEFSEAIKAFRGQDDKIRVVLNKADQVDTQQLMRVYGALMWSLGKVINTPEVLRVYIGSFWAQPLQNTDNRRLFEAEAQDLFRDIQSLPQKAAVRKLNDLIKRARLAKVHAYIISYLKKEMPNMFGKENKKRELIYRLPEIYVQLQREYQISAGDFPEVKAMQEQLENYDFTKFHSLKPKLIEAVDNMLTNKISSLMGLISQEEMNMPTQMVQGGAFDGTTEGPFNQGYGEGAKEGADEEEWVVAKDKPVYDELFYTLSPINGKISGVNAKKEMVTSKLPNSVLGKIWKLADCDCDGMLDEEEFALAKHLIKIKLDGYELPNSLPPHLVPPSHRKSLPKAD
B4: Nucleolar and coiled-body phosphoprotein 1 (protein, UniProt E9Q5C9 1-702, looked up)
Nucleolar and coiled-body …: MADTGLRRVVPSDLYPLVLRFLRDSQLSEVASKFAKATGATQQDANASSLLDIYSFWLNRSTKAPKVKLQSNGPVTKKAKKETSSSDSSEDSSEDEDKKAQGLPTQKAAAQVKRASVPQHAGKAAAKASESSSSEESSEEEEEDKKKKPVQQKAAKPQAKAVRPPAKKAESSESDSDSDSDSSSEEETPQTQKPKAAVAAKAQTKAEAKPGTPAKAQPKVANGKAAASSSSSSSSDDSEEEKKAAAPPKKTVPKKQVVAKAPVKVAAAPTQKSSSSEDSSSEEEEGQRQPMKKKAGPYSSVPPPSVPLPKKSPGTQAPKKAAAQTQPADSSDDSSDDSDSSSEEEKKPPAKTVVSKTPAKAAPVKKKAESSSDSSDSDSSEDEAPAKPVSTTKSPKPAVTPKPSAAKAVTTPKQPAGSNQKPQSRKADSSSSEEESSSSEEEEASKKSATTPKAKVTAKAAPAKQAPQAAGDSSSDSDSSSSEEEEKTPKPPAKKKAAGGAVSTPAPGKKAEAKSSSSSSSSSSEDSSEEEKKKKPKATTPKIQASKANGTPASLNGKAAKESEEEEEEEETEEKKKAAGTKPGSGKKRKQNETADEATTPQAKKVKLETPNTFPKRKKGERRASSPFRRVREEEIEVDSRVADNSFDAKRGAAGDWGERANQVLKFTKGKSFRHEKTKKKRGSYRGGSISVQVNSVKFDSE
B5: Angiopoietin-1 (protein, UniProt O08538 20-498, looked up)
Angiopoietin-1: SNQRRNPENGGRRYNRIQHGQCAYTFILPEHDGNCRESATEQYNTNALQRDAPHVEPDFSSQKLQHLEHVMENYTQWLQKLENYIVENMKSEMAQIQQNAVQNHTATMLEIGTSLLSQTAEQTRKLTDVETQVLNQTSRLEIQLLENSLSTYKLEKQLLQQTNEILKIHEKNSLLEHKILEMEGKHKEELDTLKEEKENLQGLVSRQTFIIQELEKQLSRATNNNSILQKQQLELMDTVHNLISLCTKEGVLLKGGKREEEKPFRDCADVYQAGFNKSGIYTIYFNNMPEPKKVFCNMDVNGGGWTVIQHREDGSLDFQRGWKEYKMGFGNPSGEYWLGNEFIFAITSQRQYMLRIELMDWEGNRAYSQYDRFHIGNEKQNYRLYLKGHTGTAGKQSSLILHGADFSTKDADNDNCMCKCALMLTGGWWFDACGPSNLNGMFYTAGQNHGKLNGIKWHYFKGPSYSLRSTTMMIRPLDF
B6: Complement factor H (protein, UniProt P06909 19-1234, looked up)
Complement factor H: EDCKGPPPRENSEILSGSWSEQLYPEGTQATYKCRPGYRTLGTIVKVCKNGKWVASNPSRICRKKPCGHPGDTPFGSFRLAVGSQFEFGAKVVYTCDDGYQLLGEIDYRECGADGWINDIPLCEVVKCLPVTELENGRIVSGAAETDQEYYFGQVVRFECNSGFKIEGHKEIHCSENGLWSNEKPRCVEILCTPPRVENGDGINVKPVYKENERYHYKCKHGYVPKERGDAVCTGSGWSSQPFCEEKRCSPPYILNGIYTPHRIIHRSDDEIRYECNYGFYPVTGSTVSKCTPTGWIPVPRCTLKPCEFPQFKYGRLYYEESLRPNFPVSIGNKYSYKCDNGFSPPSGYSWDYLRCTAQGWEPEVPCVRKCVFHYVENGDSAYWEKVYVQGQSLKVQCYNGYSLQNGQDTMTCTENGWSPPPKCIRIKTCSASDIHIDNGFLSESSSIYALNRETSYRCKQGYVTNTGEISGSITCLQNGWSPQPSCIKSCDMPVFENSITKNTRTWFKLNDKLDYECLVGFENEYKHTKGSITCTYYGWSDTPSCYERECSVPTLDRKLVVSPRKEKYRVGDLLEFSCHSGHRVGPDSVQCYHFGWSPGFPTCKGQVASCAPPLEILNGEINGAKKVEYSHGEVVKYDCKPRFLLKGPNKIQCVDGNWTTLPVCIEEERTCGDIPELEHGSAKCSVPPYHHGDSVEFICEENFTMIGHGSVSCISGKWTQLPKCVATDQLEKCRVLKSTGIEAIKPKLTEFTHNSTMDYKCRDKQEYERSICINGKWDPEPNCTSKTSCPPPPQIPNTQVIETTVKYLDGEKLSVLCQDNYLTQDSEEMVCKDGRWQSLPRCIEKIPCSQPPTIEHGSINLPRSSEERRDSIESSSHEHGTTFSYVCDDGFRIPEENRITCYMGKWSTPPRCVGLPCGPPPSIPLGTVSLELESYQHGEEVTYHCSTGFGIDGPAFIICEGGKWSDPPKCIKTDCDVLPTVKNAIIRGKSKKSYRTGEQVTFRCQSPYQMNGSDTVTCVNSRWIGQPVCKDNSCVDPPHVPNATIVTRTKNKYLHGDRVRYECNKPLELFGQVEVMCENGIWTEKPKCRDSTGKCGPPPPIDNGDITSLSLPVYEPLSSVEYQCQKYYLLKGKKTITCRNGKWSEPPTCLHACVIPENIMESHNIILKWRHTEKIYSHSGEDIEFGCKYGYYKARDSPPFRTKCINGTINYPTCV
B7: Basigin (protein, UniProt P18572 22-389, looked up)
Basigin: AAGFLKAPLSQERWAGGSVVLHCEAVGSPIPEIQWWFEGNAPNDSCSQLWDGARLDRVHIHAAYRQHAASSLSVDGLTAEDTGTYECRASSDPDRNHLTRPPRVKWVRAQASVVVLEPGTIQTSVQEVNSKTQLTCSLNSSGVDIVGHRWMRGGKVLQEDTLPDLHTKYIVDADDRSGEYSCIFLPEPVGRSEINVEGPPRIKVGKKSEHSSEGELAKLVCKSDASYPPITDWFWFKTSDTGEEEAITNSTEANGKYVVVSTPEKSQLTISNLDVNVDPGTYVCNATNAQGTTRETISLRVRSRMAALWPFLGIVAEVLVLVTIIFIYEKRRKPDQTLDEDDPGAAPLKGSGTHMNDKDKNVRQRNAT

Test system: coronal proteins on NPs
Design: species or system mouse
Conditions: for V5 Sera_Nanoparticles Quantitative Value (Normalized Total Spectra): 20:1 NP:sera, centrifuged and washed; for V5 Sera Alone (Control) Quantitative Value (Normalized Total Spectra): IAV day 5 (V5) mouse sera alone
[1] = HBPE-NPs incubated with IAV day 5 (V5) mouse sera 1 h
[2] = no NPs, mass spectrometry protein identification

| Molecule | V5 Sera_Nanoparticles Quantitative Value (Normalized Total Spectra) [1] | V5 Sera Alone (Control) Quantitative Value (Normalized Total Spectra) [2] | V5 Sera_Nanoparticles Quantitative Value (Normalized Total Spectra) (HBPE-NPs incubated 1 h with IAV day 5 (V5) mouse sera) | V5 Sera Alone (Control) Quantitative Value (Normalized Total Spectra) (no NPs (sera-only control)) |
| --- | --- | --- | --- | --- |
| B1 | 0 | 0.9252 |  |  |
| B2 | 0 | 0.9252 |  |  |
| B3 | 0 | 0.9252 |  |  |
| B4 | 0 | 0.9252 |  |  |
| B5 | 0 | 0.9252 |  |  |
| B6 |  |  | 27.198 | 124.91 |
| B7 | 0 | 0.9252 |  |  |
